From BindingDB's records for 12904075 come the findings set out here.

Chains of the proteins cited; added tags and fusions are not shown. Lines headed by an entry give the natural chain unless they say otherwise; changes in a name come on top.
UniProt Q14761: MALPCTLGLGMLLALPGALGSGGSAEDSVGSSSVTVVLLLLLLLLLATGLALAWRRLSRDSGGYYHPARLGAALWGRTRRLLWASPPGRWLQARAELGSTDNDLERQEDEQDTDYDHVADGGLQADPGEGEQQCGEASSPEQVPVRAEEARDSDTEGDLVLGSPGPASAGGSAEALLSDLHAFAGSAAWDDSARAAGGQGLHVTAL

SMILES strings stand for the structures.

This assay concerns the target Protein tyrosine phosphatase receptor type C-associated protein (Homo sapiens, UniProt Q14761). As to the kind of experiment: ASSAY_NAME: ChEMBL_210866 (CHEMBL812679) DESCRIPTION: Inhibitory activity against Tyrosine phosphatase from Yersinia (Yop protein).
As usually defined, the Ki is the equilibrium dissociation constant of an inhibitor or competing ligand from its target. Read a low Ki as higher affinity. Molecule `O=C(O)CCCCCP(=O)(O)O` had a Ki of 42 mM.

Turning to `O=C(O)c1cccc2ccc(CP(O)(O)=S)cc12`, the inhibition constant (Ki) turned out to be 0.2 mM.

Turning to `O=C(O)CCCCCP(O)(O)=S`, affinity was put at a Ki of 29 mM.
